System: T. cruzi-infected H9C2 cardiomyocytes, high-content imaging
Assay: anti-T. cruzi activity in infected cardiomyocytes – imaging, H9C2 host cardiomyocytes, host toxicity (AID 1159565);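 note: infected cells incubated 72 h after plating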

CC(C)(C)c1ccc(NC2(C(N)=O)CCN(Cc3ccccc3)CC2)cc1
IC50: 250 nM | IC50 (measured here: H9C2 host cell toxicity): > 50000 nM | IC50 (measured here: amastigotes per cell): 160 nM
